Measured values from several laboratories, pooled; numbers as filed in NIAID ChemDB.

Common to all: growth or infection tests; species: HIV-1

Neighbouring rows are from separate reports. An empty or dashed field is not shown. ECn is the concentration giving n% inhibition of infection, replication or growth.

SMILES,changes,strain,read by,cells,endpoint,value
Cc1cc(F)ccc1OCCOc1ccc(-c2cnc(C)c([C@H](OC(C)(C)C)C(=O)O)c2N2CCC(C)(C)CC2)cn1,-,NL4-3,luminescence,MT-2,EC50,0.0056 µM
CCc1c(Cc2cc(C)cc(C)c2)n(COCC#Cc2ccc(O)cc2)c(=O)[nH]c1=O,WT,IIIB,MTT,MT-4,EC50,0.008 µM
CCCn1c(C)c(C)c2c(-c3ccc(Cl)cc3)c(C(OC(C)(C)C)C(=O)O)c(C)nc21,-,IIIB,MTT,MT-4,EC50,0.0293 µM
Cc1ncc(-c2ccc(NCCOc3ccc(Cl)cc3F)cn2)c(N2CCC(C)(C)CC2)c1[C@H](OC(C)(C)C)C(=O)O,-,NL4-3,luminescence,MT-2,EC50,0.0063 µM
CCc1c(Cc2cc(C)cc(C)c2)n(COCC#Cc2ccccc2)c(=O)[nH]c1=O,WT,IIIB,MTT,MT-4,EC50,0.004 µM
Cc1nnc(SCC(=O)Nc2ccc(S(N)(=O)=O)cc2Cl)n1-c1ccc(Cl)c2ccccc12,RT-Y188L,NL4-3,luciferase,HeLa + HeLa-JC53,EC50,0.068 µM
Cc1ncc(-c2ccc(OCc3ccncc3)cn2)c(N2CCC(C)(C)CC2)c1[C@H](OC(C)(C)C)C(=O)O,-,NL4-3,luminescence,MT-2,EC50,0.0075 µM
CC(=O)N1CCC(n2c(=O)c(O)c3n(c2=O)CCN(Cc2ccc(F)cc2)C3=O)CC1,-,-,p24,MT-4,EC50,<10 µM
Cc1ccc(-n2c(CO)nnc2SCC(=O)Nc2ccc(C)cc2Br)cc1,RT-K103N Y181C,NL4-3,luciferase,HeLa + HeLa-JC53,EC50,>10 µM
CCc1c(Cc2cc(C)cc(C)c2)n(COCc2cn(Cc3c(F)cccc3F)nn2)c(=O)[nH]c1=O,K103N + Y181C,IIIB,MTT,MT-4,EC50,14 µM
Cc1nc2c(c(C)c(C)n2Cc2cncnc2)c(-c2ccc(Cl)cc2)c1[C@H](OC(C)(C)C)C(=O)O,-,IIIB,MTT,MT-4,EC50,0.00548 µM
Cc1ccc2c(C)ccc(-n3c(C)nnc3SCC(=O)Nc3ccccc3Br)c2c1,RT-Y188L,NL4-3,luciferase,HeLa + HeLa-JC53,EC50,0.12 µM
Cc1nc2c(c(C)c(C)n2Cc2ccn[nH]2)c(-c2ccc(Cl)cc2)c1[C@H](OC(C)(C)C)C(=O)O,-,IIIB,MTT,MT-4,EC50,0.02287 µM
CCc1c(Cc2cc(C)cc(C)c2)n(COCC#CC#CCO[Si](c2ccccc2)(c2ccccc2)C(C)(C)C)c(=O)[nH]c1=O,EFV-resistant (K103R V179D P225H),IIIB,MTT,MT-4,EC50,>76 µM
Cc1ccc(-n2c(C)nnc2SCC(=O)Nc2ccc(Oc3ccccc3)cc2)cc1,RT-K103N Y181C,NL4-3,luciferase,HeLa + HeLa-JC53,EC50,>10 µM
O=C1c2c(O)c(=O)n(-c3ccc(N4CCOCC4)nc3)c(=O)n2CCN1Cc1ccc(F)cc1,-,-,p24,MT-4,EC50,<10 µM
Cc1ccc2c(C)cc(C)c(-n3c(C)nnc3SCC(=O)Nc3ccc(S(N)(=O)=O)cc3Cl)c2n1,RT-Y188L,NL4-3,luciferase,HeLa + HeLa-JC53,EC50,0.011 µM
COP(=O)(c1cc(C)cc(CCC#N)c1)c1c(C(N)=O)[nH]c2ccc(Cl)cc12,K103R/V179D/P225H,IIIB,cytopathic effect,MT-4,EC50,0.025 µM
Cc1ccc2ccc(C)c(-n3c(SCC(=O)Nc4ccc(S(N)(=O)=O)cc4Cl)nnc3C(F)(F)F)c2c1,RT-Y188L,NL4-3,luciferase,HeLa + HeLa-JC53,EC50,0.026 µM
CCn1c(C)c(C)c2c(-c3ccc(F)cc3)c(C(OC(C)(C)C)C(=O)O)c(C)nc21,-,IIIB,MTT,MT-4,EC50,0.1164 µM
CCc1c(Cc2cc(C)cc(C)c2)n(COCC#Cc2ccccc2[N+](=O)[O-])c(=O)[nH]c1=O,WT,IIIB,MTT,MT-4,EC50,0.06 µM
CC(C)[C@H](NC(=O)OCc1ccccn1)C(=O)N[C@@H](Cc1ccccc1)[C@@H](O)C[C@H](Cc1ccccc1)NC(=O)OCc1cccnc1,PR-L10R M46I V82T,NL4-3,p24,MT-4,EC95,1.5 µM
O=C1c2c(O)c(=O)n(C3CCNCC3)c(=O)n2CCN1Cc1ccc(F)cc1,-,-,p24,MT-4,EC50,<10 µM
CCc1c(Cc2cc(C)cc(C)c2)n(COCC#CC#CCO)c(=O)[nH]c1=O,Y181C,IIIB,MTT,MT-4,EC50,0.8 µM
O=C1c2c(O)c(=O)n(C3CCOCC3)c(=O)n2CCN1Cc1ccc(F)cc1,-,-,p24,MT-4,EC50,<10 µM
Cc1nc2c(c(C)c(C)n2CCC#N)c(-c2ccc(Cl)cc2)c1[C@@H](OC(C)(C)C)C(=O)O,-,IIIB,MTT,MT-4,EC50,0.286 µM
Cc1ncc(-c2ccc(OCCn3cc(-c4ccccc4)cn3)cn2)c(N2CCC(C)(C)CC2)c1[C@H](OC(C)(C)C)C(=O)O,-,NL4-3,luminescence,MT-2,EC50,0.0037 µM
Cc1ccc(-n2c(C)nnc2SCC(=O)Nc2ccccc2I)cc1,RT-K103N Y181C,NL4-3,luciferase,HeLa + HeLa-JC53,EC50,0.22 µM
CC(C)=CCOc1cc(NC(=S)c2ccoc2C)ccc1Cl,RT-V108I,Thiazolobenzimidazole-resistant (RT V108I),cytopathic effect / XTT,CEM + CEM-SS,EC50,0.1 µM
CCC1CC(Oc2ccc(-c3cnc(C)c([C@H](OC(C)(C)C)C(=O)O)c3N3CCC(C)(C)CC3)nc2)C1,-,NL4-3,luminescence,MT-2,EC50,0.01 µM
CC(C)CN(C[C@@H](O)[C@H](Cc1ccccc1)NC(=O)O[C@H]1CO[C@H]2OCC[C@H]21)S(=O)(=O)c1ccc2c(c1)OCO2,-,LAI,MTT,MT-2,EC50,0.0005 µM
CC(C)=CCOc1cc(NC(=S)c2ccsc2C)ccc1Cl,-,RF,cytopathic effect / XTT,CEM + CEM-SS,EC50,0.004 µM
Cc1cc(F)ccc1OCCN(C)c1ccc(-c2cnc(C)c([C@H](OC(C)(C)C)C(=O)O)c2N2CCC(C)(C)CC2)cn1,-,NL4-3,luminescence,MT-2,EC50,0.002 µM

The first 3 rows once more:

SMILES	changes	strain	read by	cells	endpoint	value
Cc1cc(F)ccc1OCCOc1ccc(-c2cnc(C)c([C@H](OC(C)(C)C)C(=O)O)c2N2CCC(C)(C)CC2)cn1	-	NL4-3	luminescence	MT-2	EC50	0.0056 µM
CCc1c(Cc2cc(C)cc(C)c2)n(COCC#Cc2ccc(O)cc2)c(=O)[nH]c1=O	WT	IIIB	MTT	MT-4	EC50	0.008 µM
CCCn1c(C)c(C)c2c(-c3ccc(Cl)cc3)c(C(OC(C)(C)C)C(=O)O)c(C)nc21	-	IIIB	MTT	MT-4	EC50	0.0293 µM